The values that follow come from article PMC11269945, “HTRF-based assay for detection of mono-ADP-ribosyl hydrolyzing macrodomains and inhibitor screening” (iScience, 2024).

This assay addresses SARS-CoV Mac1 (Severe acute respiratory syndrome coronavirus, UniProt P0C6X7). The assay is described as follows: DeMAR HTRF deMARylation assay, wash protocol. Particulars: wash setup, 2 h, 80 nM macrodomain, 6 nM immobilized Tb-PARP10cat.

As for `O=C(Nc1ccc(C(=O)NC2c3cccc(O)c3CC2C(=O)O)c(O)c1)NC1CC1` (stereo not shown) [Z8539_0072], the “IC50 SARS-CoV” value is recorded as “Unq. ^a”.
